Anti-infective test results gathered from many reports (values: NIAID ChemDB through PubChem).

Shared fields: whole-cell or culture tests; organism: HIV-1; cells: MT-4; read-out: EC50

Neighbouring rows are from separate reports. Two numbers with a dash give a range or band. ECn: concentration that inhibits the pathogen or its effect by n%. Blank or dashed fields: not listed here.

SMILES | strain | mutations | method | conditions | value
N#Cc1cc2[nH]c3ccccc3c2n(-c2ccc([N+](=O)[O-])cc2)c1=O | LAI WT |  | cytopathic effect / MTT |  | 0.32 µM
Cc1ccc2sn(/N=C/c3ccc(O)c(O)c3)c(=O)c2c1 |  | Y181C | MTT |  | >49 µM
CCOC(=O)c1ccc(CN2CCC(Nc3nc(Oc4c(C)cc(/C=C/C#N)cc4C)c4sccc4n3)CC2)cc1 | IIIB | NNRTI-resistant (RT F227L V106A) | MTT |  | 0.0852 µM
CCc1c(Cc2cc(C)cc(C)c2)n(COCC#Cc2cc(C(F)(F)F)cc(C(F)(F)F)c2)c(=O)[nH]c1=O | IIIB | K103N + Y181C | MTT |  | >70 µM
N#Cc1cc(Cl)cc(Oc2cc(OCc3cn(-c4ccccc4)nn3)ccc2Cl)c1 |  |  | p24 |  | <20 µM
CCn1c(C)c(C)c2c(-c3ccccc3)c(C(OC(C)(C)C)C(=O)O)c(C)nc21 | IIIB |  | MTT |  | 0.692 µM
Cc1ccc2sn(/N=C/c3ccccc3)c(=O)c2c1 |  | EFV-resistant (K103 V179D P225H) | MTT |  | >33 µM
N#Cc1cc(Cl)cc(Oc2cc(OCc3[nH]nc4nc(N)ccc34)cc(F)c2Cl)c1 |  |  | p24 |  | <20 µM
O=C1Nc2ccc(Cl)cc2[C@@](C#CC2CC2)(C(F)(F)F)O1 | IIIB | L100I | MTT |  | 0.0444 µM
O=c1c2ccccc2sn1/N=C/c1cccc(F)c1 |  | K103N + Y181C | MTT |  | >15 µM
COCCN(C)c1ccc2c(COc3ccc(Cl)c(Oc4cc(Cl)cc(C#N)c4)c3)[nH]nc2n1 |  |  | p24 |  | <20 µM
O=C1Nc2ccc(Cl)cc2[C@@](C#CC2CC2)(C(F)(F)F)O1 |  | V179F/Y181C |  |  | 0.0058 µM
COc1ccc(S(=O)(=O)N(CC(C)C)C[C@@H](O)[C@H](Cc2ccccc2)NC(=O)[C@H](C(C)C)N2CC(=O)N(Cc3ccccc3)C2=O)cc1 |  |  | cytopathic effect / MTT |  | 0.005 µM
Cc1nc2c(c(C)c(C)n2Cc2ccccn2)c(-c2ccc(Cl)cc2)c1C(OC(C)(C)C)C(=O)O | IIIB |  | MTT |  | 0.144 µM
Cc1ncn(Nc2cccc(Cl)c2)c1-c1cccc(Br)c1 | SO561945 (RT K103N Y181C) | RT-K103N Y181C | cytopathic effect / MTT |  | 0.97 µM
O=c1c2ccccc2sn1/N=C/c1ccccc1O |  | K103N + Y181C | MTT |  | >18 µM
CCc1c(Cc2cc(C)cc(C)c2)n(COCC#Cc2cccc(O[Si](c3ccccc3)(c3ccccc3)C(C)(C)C)c2)c(=O)[nH]c1=O | IIIB | Y181C | MTT |  | 7.6 µM
CCC(C)[C@@H](C(=O)N[C@@H](Cc1ccccc1)[C@H](O)CN(CC(C)C)S(=O)(=O)c1ccc(/C=N/O)cc1)N1CC(=O)N(Cc2ccncc2)C1=O |  |  | cytopathic effect / MTT | 50% human serum | 0.013 µM
N#CC1=CC2Nc3ccccc3C2N(c2cccc([N+](=O)[O-])c2)C1=O | LAI |  | cytopathic effect / MTT |  | 1–32 µM
CCC(C)[C@@H](C(=O)N[C@@H](Cc1ccccc1)[C@H](O)CN(CC1CCCC1)S(=O)(=O)c1ccc(/C=N/O)cc1)N1CCN(Cc2cccnc2C)C1=O | A17 (LPV-resistant) | PR-L10F V32I M46I I47V Q68E I84V | cytopathic effect / MTT |  | 0.002 µM
CCc1c(Cc2cc(C)cc(C)c2)n(COCC#Cc2ccccc2[N+](=O)[O-])c(=O)[nH]c1=O | IIIB | K103N + Y181C | MTT |  | >10 µM
Cc1cc(/C=C/C#N)cc(C)c1Oc1nc(NC2CCN(Cc3ccccc3F)CC2)nc2ccsc12 | IIIB | NNRTI-resistant (RT Y181C) | MTT |  | 0.0298 µM
N#Cc1ccc(Nc2nc(Oc3c(F)cc(-c4ccc(C#N)cc4)cc3F)c3sccc3n2)cc1 | IIIB | F227L V106A | MTT |  | >7.23 µM
CCC(C)[C@@H](C(=O)N[C@@H](Cc1ccccc1)[C@H](O)CN(CC(C)C)S(=O)(=O)c1ccc(/C=N/O)cc1)N1CC(=O)N(Cc2ccccn2)C1=O |  |  | cytopathic effect / MTT |  | 0.003 µM
N#Cc1ccc(Nc2nc(Oc3ccc(-c4ccc(C#N)cc4)c(F)c3F)c3sccc3n2)cc1 | IIIB |  | MTT |  | 0.0135 µM
CC(C)[C@H](NC(=O)OCc1ccccn1)C(=O)N[C@@H](Cc1ccccc1)[C@@H](O)C[C@H](Cc1ccccc1)NC(=O)OCc1cccnc1 | NL4-3 | PR-L63P V82T | p24 |  | <1.5 µM
CCC(C)[C@@H](C(=O)N[C@@H](Cc1ccccc1)[C@H](O)CN(CC(C)C)S(=O)(=O)c1ccc(/C=N/O)cc1)N1CCN(Cc2ccc(OC)nc2)C1=O |  |  | cytopathic effect / MTT | 50% human serum | 0.01 µM
N#Cc1ccc(Nc2nc(Oc3ccc(-c4ccc(C#N)cc4)c(C(F)(F)F)c3)c3sccc3n2)cc1 | IIIB |  | MTT |  | 0.5262 µM
Cc1[nH]c(=S)n(Nc2cccc(F)c2)c1-c1ccccc1 | IIIB |  | cytopathic effect / MTT |  | >108 µM
N#CC1=CC2C(c3ccccc3N2CCCCN2CCCCC2)N(c2ccc([N+](=O)[O-])cc2)C1=O | LAI |  | cytopathic effect / MTT |  | <1 µM
Cc1cccc(Nn2c(C)c(C)[nH]c2=S)c1 | NL4-3 |  | cytopathic effect / MTT |  | >360 µM
CN1c2ccccc2C2C1C=C(c1nc(=S)o[nH]1)C(=O)N2c1ccc([N+](=O)[O-])cc1 | LAI |  | cytopathic effect / MTT |  | 1–32 µM
Cc1cc(/C=C/C#N)cc(C)c1Oc1nc(NC2CCN(Cc3cccc(C(N)=O)c3)CC2)nc2ccsc12 | IIIB | NNRTI-resistant (RT Y188L) | MTT |  | 0.0274 µM
Cc1ccc2sn(/N=C/c3ccc4c(c3)OCO4)c(=O)c2c1 |  | Y181C | MTT |  | 33 µM
Cc1cccc(Nn2c(-c3ccccc3)c(C)[nH]c2=S)c1 | SO561945 (RT K103N Y181C) | RT-K103N Y181C | cytopathic effect / MTT |  | 26.1 µM
Cc1cc(-c2ccc(C#N)cc2)cc(Cl)c1Oc1nc(Nc2ccc(C#N)cc2)nc2ccsc12 | IIIB | F227L V106A | MTT |  | 0.4056 µM
CCc1c(Cc2cc(C)cc(C)c2)n(COCC#CC#CCO)c(=O)[nH]c1=O | IIIB | WT | MTT |  | 0.008 µM
Cc1cc(/C=C/C#N)cc(C)c1Oc1nc(NC2CCN(Cc3ccccc3C#N)CC2)nc2ccsc12 | IIIB | NNRTI-resistant (RT F227L V106A) | MTT |  | 0.0378 µM
Cc1cc(C)cc(Nn2c(-c3ccccc3)c(C)[nH]c2=S)c1 | IIIB |  | cytopathic effect / MTT |  | 1.03 µM
Cc1nc2c(c(C)c(C)n2CCF)c(-c2ccc(Cl)cc2)c1[C@H](OC(C)(C)C)C(=O)O | IIIB |  | MTT |  | 0.00582 µM
O=c1c2ccccc2sn1/N=C/c1ccc(O)cc1 |  | Y181C | MTT |  | >18 µM
Cc1cc(C)cc(Nn2cnc(C)c2-c2ccccc2)c1 | IIIB |  | cytopathic effect / MTT |  | >20.44 µM
CCC[C@@]1(CCc2ccccc2)CC(O)=C([C@H](CC)c2cccc(NS(=O)(=O)c3ccc(C(F)(F)F)cn3)c2)C(=O)O1 | T13632 | V32I I50V L76V V82I | reporter gene |  | 92 nM
Cc1ccccc1CN1CCC(Nc2nc(Oc3c(C)cc(/C=C/C#N)cc3C)c3sccc3n2)CC1 | IIIB | NNRTI-resistant (RT F227L V106A) | MTT |  | 0.0614 µM
Clc1cccc(Nn2cnc3c2CCCC3)c1 | NL4-3 |  | cytopathic effect / MTT |  | >67.29 µM
N#Cc1cc(Cl)cc(Oc2cc(OCc3[nH]nc4nc(N5CCC(N)C5)ccc34)ccc2Cl)c1 |  |  | p24 |  | <20 µM
Cc1nc2c(c(C)c(C)n2Cc2cncnc2)c(-c2ccc(Cl)cc2)c1[C@H](OC(C)(C)C)C(=O)O | IIIB |  | MTT |  | 0.00548 µM
Cc1cc(C#N)cc(C)c1Oc1nc(NC2CCC(NCc3ccc(O)cc3)CC2)nc2ccsc12 | IIIB | NNRTI-resistant (RT E138K) | MTT |  | 4.02 µM

Again, the opening 6 rows:

SMILES | strain | mutations | method | conditions | value
N#Cc1cc2[nH]c3ccccc3c2n(-c2ccc([N+](=O)[O-])cc2)c1=O | LAI WT |  | cytopathic effect / MTT |  | 0.32 µM
Cc1ccc2sn(/N=C/c3ccc(O)c(O)c3)c(=O)c2c1 |  | Y181C | MTT |  | >49 µM
CCOC(=O)c1ccc(CN2CCC(Nc3nc(Oc4c(C)cc(/C=C/C#N)cc4C)c4sccc4n3)CC2)cc1 | IIIB | NNRTI-resistant (RT F227L V106A) | MTT |  | 0.0852 µM
CCc1c(Cc2cc(C)cc(C)c2)n(COCC#Cc2cc(C(F)(F)F)cc(C(F)(F)F)c2)c(=O)[nH]c1=O | IIIB | K103N + Y181C | MTT |  | >70 µM
N#Cc1cc(Cl)cc(Oc2cc(OCc3cn(-c4ccccc4)nn3)ccc2Cl)c1 |  |  | p24 |  | <20 µM
CCn1c(C)c(C)c2c(-c3ccccc3)c(C(OC(C)(C)C)C(=O)O)c(C)nc21 | IIIB |  | MTT |  | 0.692 µM